A mixed list of measured activities; the numbers were collected in NIAID ChemDB.

Common to all: toxicity to cultured cells; read-out: CC50

Blank or dashed fields: not listed here.

structure	read by	cells	value
COc1cc(O)c2c(c1O)C1O[C@]3(C)C[C@H]1[C@@H](CO3)C2=O	MTT	Panc-1	52.7 µg/mL
Cc1ccccc1C(C(N)=O)S(=O)c1cccc[n+]1[O-]	cell count	CEM	>100 µg/mL
COC(=O)N[C@@H](Cc1ccccc1Cl)C(=O)N[C@@H](C)CCC[C@@H](CO)N(C(C)C)S(=O)(=O)c1ccc(CO)cc1	microscopy	T lymphoid cells	>10 µM
CC(C)c1ccc(CS(=O)(=O)c2cccc[n+]2[O-])cc1	cell count	CEM	9.4 µg/mL
CN(C(=O)c1c(O)c2cccnc2n(O)c1=O)[C@@H]1CCNC1	-	HeLa	<100 µM
COc1cc(CS(=O)c2cccc[n+]2[O-])cc(OC)c1OC	cell count	CEM	40 µg/mL
COC(=O)N[C@H](C(=O)NC(C)(C)CCC[C@@H](CO)N(CCC(C)C)S(=O)(=O)c1ccc(N)cc1)C(c1ccccc1)c1ccccc1	microscopy	T lymphoid cells	>10 µM
CCOC(=O)c1c(-c2cccc(-c3ccc(CN)cc3)c2)c2cc(-c3ccccc3OC)cnc2n(O)c1=O	-	HeLa	<100 µM
CCCc1cc(=O)oc2c3c(c4c(c12)OC(C)(C)[C@H](O)[C@H]4O)O[C@H](C)[C@@H](C)[C@@H]3O	-	CV-1	>100 µg/mL
CS(=O)(=O)C1(c2ccc(C(=O)NC34CC(c5nc(-c6ccc(Cl)cc6)cs5)(C3)C4)o2)CC1	absorbance	Primary human hepatocytes	27.88 µM
Cc1c(C(=O)Nc2cccc(Cl)n2)c(C)n(C)c1C(=O)C(=O)N[C@H](C)C(F)(F)F	MTT	HepG2	>30 µM
COc1ccc(-c2c(C)c(=O)c3cc(C(C)C)ccc3n2C)cc1	MTT	HELA-OHIO	5.8 µg/mL
CCCc1cc(=O)oc2c3c(c4c(c12)OC(C)(C)[C@H](O)[C@@H]4O)O[C@H](C)[C@@H](C)[C@@H]3O	neutral red	CV-1	50 µg/mL
Cc1ccc(C)c(C(CC(=O)O)S(=O)(=O)c2cccc[n+]2[O-])c1	cell count	CEM	87 µg/mL
CCn1c(-c2ccccc2)cc(=O)c2c(C)c(OCC(C)C)ccc21	MTT	HELA-OHIO	>4 µg/mL
O=C(O)C(=O)/C=C(\O)c1ccc(OCc2ccccc2)cc1	-	Huh-7 hepatoma cells	>100 µM
Nc1nc2c(ncn2COC(CO)CO)c(=O)[nH]1	-	GPE	2900 µM
Cc1c(C(=O)Nc2ccc(F)c(C3CC3)c2)c(C)n(C)c1C(=O)C(=O)NC1(C)CCC(O)CC1	MTT	HepG2	>30 µM
Cn1cnc2c(NC(=O)NCCc3ccc4c(n3)NCCC4)cccc21	-	PBMC	50 µM
CS(=O)(=O)C1(c2ccc(C(=O)NC34CC(c5ccn(-c6ccc(Cl)cc6)n5)(C3)C4)o2)CC1	absorbance	Primary human hepatocytes	13.39 µM
COc1ccc(N(C)C(=O)[C@H](Cc2ccccc2)NC(=O)C2CCCCC2C(=O)N[C@@H](Cc2ccccc2)C(=O)N(C)c2ccc(OC)cc2)cc1	XTT	MT-2	33.3 µM
Cc1c(Cl)ccc(C(C)S(=O)c2cccc[n+]2[O-])c1Cl	cell count	CEM	0.59 µg/mL
O=c1ccn([C@@]23CO[C@@H]2[C@H](O)[C@@H](CO)O3)c(=O)[nH]1	resazurin	Zluc	>100 µM
COC(=O)N[C@@H](Cc1ccccc1Cl)C(=O)N[C@H](CCC[C@@H](CO)N(CC(C)C)S(=O)(=O)c1ccc(CO)cc1)C1CC1	microscopy	T lymphoid cells	>10 µM
CS(=O)(=O)C1(c2ccc(C(=O)NC34CC(c5nc(-c6ccc(Cl)c(Cl)c6)cs5)(C3)C4)o2)CC1	absorbance	Primary human hepatocytes	16.69 µM
COc1ccc(Br)c(CS(=O)(=O)c2cccc[n+]2[O-])c1	cell count	CEM	15 µg/mL
Cc1cc(NC(=O)c2c(C)c(C(=O)C(=O)NC3(C4CC4)CCC(O)CC3)n(C)c2C)ccc1F	MTT	HepG2	>30 µM
CCN(C(=O)[C@H](Cc1cc(F)cc(F)c1)NC(=O)CN1c2ccccc2N(CC(=O)N[C@@H](Cc2cc(F)cc(F)c2)C(=O)N(CC)c2ccc3oc(=O)n(CC)c3c2)S1(=O)=O)c1ccc2oc(=O)n(CC)c2c1	XTT	MT-2	33.3 µM
O=C(NCCc1ccc2c(n1)NCCC2)Nc1cccc(C(F)(F)F)c1F	-	PBMC	4 µM
Cc1cc(NC(=O)c2c(C)c(C(=O)C(=O)NC3CCC(S(C)(=O)=O)CC3)n(C)c2C2CC2)ccc1F	MTT	HepG2	>30 µM
COc1ccc(N(CCF)C(=O)[C@H](Cc2cc(F)cc(F)c2)NC(=O)CN2c3ccccc3N(CC(=O)N[C@@H](Cc3cc(F)cc(F)c3)C(=O)N(CCF)c3ccc(OC)cc3)S2(=O)=O)cc1	XTT	MT-2	100 µM
Cc1ccc(C)c(C(C)S(=O)(=O)c2c(Cl)ccc[n+]2[O-])c1	cell count	CEM	1.7 µg/mL
CC(C)c1ccccc1NC(=O)NCCc1cccc(-n2ccnc2)n1	-	PBMC	22 µM
CCCc1cc(=O)oc2cc(OCC(C)(C)C(=O)OC)c3c(c12)OC(C)(C)C=C3	neutral red	CV-1	25 µg/mL
CS(=O)(=O)C1(c2ccc(C(=O)NC34CC(c5csc(-c6ccccc6)n5)(C3)C4)o2)CC1	absorbance	Primary human hepatocytes	8.91 µM
Cc1cc2c(c(C)c1OCC(C)C)c(=O)c(C)c(-c1ccccc1)n2C	MTT	HELA-OHIO	>5 µg/mL
COc1ccc(OC)c(CS(=O)(=O)c2cccc[n+]2[O-])c1	cell count	CEM	60 µg/mL
COc1ccc(N(C)C(=O)[C@H](Cc2ccccc2)NC(=O)c2ccccc2C(=O)N[C@@H](Cc2ccccc2)C(=O)N(C)c2ccc(OC)cc2)cc1	XTT	MT-2	31.1 µM
COC(=O)N[C@H](C(=O)N[C@H](CCC[C@@H](CO)N(CC(C)C)S(=O)(=O)c1ccc(CO)cc1)C1CC1)C(c1ccccc1)c1ccccc1	microscopy	T lymphoid cells	>10 µM
Cc1ccc(CS(=O)c2cccc[n+]2[O-])cc1C	cell count	CEM	14 µg/mL
CCCCOc1nc(N)c2c(n1)N(Cc1cccc(CN3CCCC3)c1)CC(=O)N2	luminescence	CD4+ T-cell	>10 µM
COC1=CC(=O)c2c(O)c(C)c(CC(C)=O)c(O)c2C1=O	MTT	MDA-MB-231	4.1 µg/mL
CCCN([C@H](CO)CCC[C@H](CC)NC(=O)[C@@H](N)C(c1ccccc1)c1ccccc1)S(=O)(=O)c1ccc(CO)cc1	microscopy	T lymphoid cells	>10 µM
COc1ccc[n+]([O-])c1SCc1cc(C)ccc1C	cell count	CEM	70 µg/mL
CCCc1cc(=O)oc2cc(OC(=O)C(C)(C)C)c3c(c12)OC(C)(C)C=C3	-	CV-1	3 µg/mL
COC(=O)C(c1cccc(Oc2ccccc2)c1)S(=O)(=O)c1cccc[n+]1[O-]	cell count	CEM	26 µg/mL
CCOc1ccc(-c2cc(=O)c3cc(C(C)C)ccc3n2C)cc1C	MTT	HELA-OHIO	5.7 µg/mL
Cc1ccc(CS(=O)(=O)c2cccc[n+]2[O-])cc1[N+](=O)[O-]	cell count	CEM	5.8 µg/mL
O=c1cc(-c2ccncc2)c2cccnc2n1O	-	HeLa	<100 µM
CCCCCCCCOc1ccc(/C=C(/C#N)Sc2cccc[n+]2[O-])cc1	cell count	CEM	≥100 µg/mL
Cc1cc(NC(=O)c2c(C)c(C(=O)C(=O)NC3CCC(O)CC3)n(C)c2C(C)C)ccc1F	MTT	HepG2	>30 µM
Cc1ccc(C)c(C(C)S(=O)(=O)c2cc(C)cc(C)[n+]2[O-])c1	cell count	CEM	>100 µg/mL
CCCc1cc(=O)oc2cc(OC(=O)CC)c3c(c12)OC(C)(C)C=C3	-	CV-1	6 µg/mL
CS(=O)(=O)C1(c2ccc(C(=O)NC34CC(c5noc(-c6ccc(Cl)cc6)n5)(C3)C4)o2)CC1	absorbance	Primary human hepatocytes	46 µM
CN(C(=O)c1c(O)c2cccnc2n(O)c1=O)C1CCN(C(=O)OC(C)(C)C)CC1	-	HeLa	<100 µM
Cc1c(-c2ccccc2)n(-c2ccc(F)cc2)c2ccc(C(C)C)cc2c1=O	MTT	HELA-OHIO	>2 µg/mL
Cc1cccc(C(C#N)S(=O)c2cccc[n+]2[O-])c1	cell count	CEM	0.74 µg/mL
CCn1c2c(c(=O)c3cc(C(C)C)ccc31)Cc1cc(C)sc1-2	MTT	HELA-OHIO	>5 µg/mL
CCOC(=O)[C@@]1(C)CC[C@]2(C)CC[C@]3(C)C(=CC(=O)[C@@H]4[C@@]5(C)CC/C(=N\OCc6ccc(-c7ccccc7)cc6)C(C)(C)[C@@H]5CC[C@]43C)[C@@H]2C1	MTT	K562	>100 µM
Cc1c(C(=O)Nc2ccc(F)c(C#N)c2)c(C)n(C)c1C(=O)C(=O)NC1CCC(O)CC1	MTT	HepG2	>30 µM
Cc1onc(-c2ccccc2)c1NC(=S)NCCc1ccc2c(n1)NCCC2	-	PBMC	50 µM
COc1ccc(C)cc1CS(=O)(=O)c1cccc[n+]1[O-]	cell count	CEM	43 µg/mL
CN(C(=O)[C@H](Cc1ccccc1)NC(=O)NS(=O)(=O)N[C@@H](Cc1ccccc1)C(=O)N(C)c1ccccc1)c1ccccc1	XTT	MT-2	100 µM
CCOC(=O)[C@@]1(C)CC[C@]2(C)CC[C@]3(C)C(=CC(=O)[C@@H]4[C@@]5(C)CC/C(=N\OCc6ccc(C#N)cc6)C(C)(C)[C@@H]5CC[C@]43C)[C@@H]2C1	MTT	K562	>100 µM
Cc1c(C(=O)Nc2ccc(F)c(F)c2)c2n(c1C(=O)C(=O)NC1(C)CCN(C(=O)Nc3ccc(F)c(F)c3)CC1)CCCC2	MTT	HepG2	0.5–4.99 µM
COC(=O)N[C@H](C(=O)N[C@@H](C)CCC[C@@H](CO)N(CCC(C)C)S(=O)(=O)c1ccc2ncsc2c1)C(c1ccccc1)c1ccccc1	microscopy	T lymphoid cells	>10 µM
CCOc1ccccc1CS(=O)c1cccc[n+]1[O-]	cell count	CEM	69 µg/mL
CCOC(=O)[C@@]1(C)CC[C@]2(C)CC[C@]3(C)C(=CC(=O)[C@@H]4[C@@]5(C)CC/C(=N\OCc6ccccc6Cl)C(C)(C)[C@@H]5CC[C@]43C)[C@@H]2C1	MTT	CT26	31.36 µM
Cc1ccc(-n2c(-c3ccccc3)c(C)c(=O)c3cc(C(C)C)ccc32)cc1	MTT	HELA-OHIO	>2.5 µg/mL
COC1=CC(=O)c2c(O)c(C)c3cc(C)oc3c2C1=O	MTT	SupT1	7.5 µg/mL
Cc1cc(NC(=O)c2c(C)c(C(=O)C(=O)NC3(C)CC(OP(=O)([O-])[O-])C3)n(C)c2C)ccc1F.[Na+].[Na+]	MTT	HepG2	>30 µM
O=S(=O)(Cc1c(Cl)ccc(Cl)c1Cl)c1cccc[n+]1[O-]	cell count	CEM	6.5 µg/mL
O=C(NCCc1cccc(-n2cccn2)n1)NCc1ccc(Cl)c(Cl)c1	-	PBMC	15.3 µM
CS(=O)(=O)C1(c2ccc(C(=O)NC34CC(c5ncc(-c6ccc(Cl)cc6)s5)(C3)C4)o2)CC1	absorbance	Primary human hepatocytes	>47.62 µM
CCOC(=O)[C@@]1(C)CC[C@]2(C)CC[C@]3(C)C(=CC(=O)[C@@H]4[C@@]5(C)CC/C(=N\OCc6ccc(C)cc6)C(C)(C)[C@@H]5CC[C@]43C)[C@@H]2C1	MTT	CT26	25.62 µM
COc1ccc(N(C)C(=O)[C@H](Cc2ccccc2)NC(=O)c2cc(C)cc(C(=O)N[C@@H](Cc3ccccc3)C(=O)N(C)c3ccc(OC)cc3)c2)cc1	XTT	MT-2	33.3 µM
Cc1c(C(=O)Nc2cc(Cl)cc(Cl)c2)c(C)n(C)c1C(=O)C(=O)N[C@H](C)C(F)(F)F	MTT	HepG2	5–30 µM
O=S(=O)(Cc1c(Cl)cccc1Cl)c1cccc[n+]1[O-]	cell count	CEM	15 µg/mL

11 of the rows above, restated:

structure | read by | cells | value
COc1ccc[n+]([O-])c1SCc1cc(C)ccc1C | cell count | CEM | 70 µg/mL
Cc1ccc(C)c(C(CC(=O)O)S(=O)(=O)c2cccc[n+]2[O-])c1 | cell count | CEM | 87 µg/mL
COc1cc(CS(=O)c2cccc[n+]2[O-])cc(OC)c1OC | cell count | CEM | 40 µg/mL
O=C(NCCc1ccc2c(n1)NCCC2)Nc1cccc(C(F)(F)F)c1F | - | PBMC | 4 µM
COc1ccc(N(C)C(=O)[C@H](Cc2ccccc2)NC(=O)c2cc(C)cc(C(=O)N[C@@H](Cc3ccccc3)C(=O)N(C)c3ccc(OC)cc3)c2)cc1 | XTT | MT-2 | 33.3 µM
Cc1c(-c2ccccc2)n(-c2ccc(F)cc2)c2ccc(C(C)C)cc2c1=O | MTT | HELA-OHIO | >2 µg/mL
Cc1ccc(C)c(C(C)S(=O)(=O)c2c(Cl)ccc[n+]2[O-])c1 | cell count | CEM | 1.7 µg/mL
Cc1cc(NC(=O)c2c(C)c(C(=O)C(=O)NC3CCC(S(C)(=O)=O)CC3)n(C)c2C2CC2)ccc1F | MTT | HepG2 | >30 µM
CCOC(=O)[C@@]1(C)CC[C@]2(C)CC[C@]3(C)C(=CC(=O)[C@@H]4[C@@]5(C)CC/C(=N\OCc6ccccc6Cl)C(C)(C)[C@@H]5CC[C@]43C)[C@@H]2C1 | MTT | CT26 | 31.36 µM
Cc1onc(-c2ccccc2)c1NC(=S)NCCc1ccc2c(n1)NCCC2 | - | PBMC | 50 µM
Cc1ccc(CS(=O)(=O)c2cccc[n+]2[O-])cc1[N+](=O)[O-] | cell count | CEM | 5.8 µg/mL

Conditions beyond the fields shown may differ between rows. Two numbers with a dash give a range or band. CCn is the concentration with n% toxicity to the cells.